Stoichiometry N data for one substance are collected here from publication PMC6527160, “Biochemical characterization of the Lassa virus L protein” (2019).

This assay deals with Lassa virus L protein with internal StrepII-tag after residue 407 (Lassa virus strain Bantou 289). Kind of assay: SEC. (Size exclusion chromatography separates by hydrodynamic size, large species first.)

As usually defined, the stoichiometry N is the number of molecules, sites or subunits per partner or assembly. As to “Lassa virus L protein with internal StrepII-tag after residue 407 (enzyme)”, the stoichiometry N turned out to be 2.
